Measured values taken from PubChem BioAssay AID504621 (Broad Institute, 2011).
The entries are a selection whose mix differs from that of the whole data set. Active and inactive are the calls of the source.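 Rule for the calls: active = every replicate shows inhibition above about 80%, whatever the replicate mean (limit read from the data); inconclusive = mean inhibition reaches the set limit but some replicate falls short; inactive = the rest.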

Assay: reduced ATP signal of yeast carrying P. falciparum Hsp90 – S. cerevisiae, BacTiter-Glo luminescence, single point, set 2, antimalarial PfHsp90 inhibitor project, primary screen (AID 504621);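 note: yeast relying on Plasmodium falciparum Hsp90 in place of its own; 0% = DMSO neutral controls and 100% = 20 µM radicicol positive controls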
Details: S. cerevisiae expressing PfHsp90, growth, 48 h, at 9.4 µM, stronger effect = higher value, yeast lacking PDR1 and PDR3 efflux regulators

Structure (SMILES) | inhibition
Cc1ccc(NP(=O)(Oc2cccc(C)c2)Oc2cccc(C)c2)nc1 | inactive: 5.03%
c1ccc(-c2nn[nH]n2)c(-c2nn[nH]n2)c1 | inactive: 15%
CCNC(=S)/N=C(\N)N[N+](=O)[O-] | inactive: 1.54%
O=C(NC1CCS(=O)(=O)C1)NP(=S)(Oc1ccccc1)Oc1ccccc1 (centres undefined) | inactive: -21%
O=c1c2cc([N+](=O)[O-])ccc2[nH]c2c([N+](=O)[O-])cc([N+](=O)[O-])cc12 | active: 105%
CN(C)C(=O)Oc1noc2ccccc12 | inactive: -17%
Cc1ccccc1OP(=O)(Nc1ccccn1)Oc1ccccc1C | inactive: -7.01%
CCC(=O)N1C2C3N(C(=O)CC)C1C1N(C(=O)CC)C(C(N1C(=O)CC)N3C(=O)CC)N2C(=O)CC | inactive: -9.77%
O=C(OC1CN2CCC1CC2)c1ccccc1 (centres undefined) | inactive: -7.32%
Cc1ccc(OP(=O)(Nc2ccccn2)Oc2ccc(C)cc2)cc1 | active: 90.4%
CC(=O)NC(SC(=S)N(CC(C)C)CC(C)C)C(Cl)(Cl)Cl (centres undefined) | inactive: -5.93%
COC(=O)c1cc2c(s1)N=C(c1ccccc1)N(C)P2(=O)N1CCOCC1 (centres undefined) | inactive: 7.33%
Cc1ccc(NP(=O)(Oc2ccccc2F)Oc2ccccc2F)nc1 | inactive: 15.4%
CN(C(=O)Cc1ccc(Cl)c(Cl)c1)[C@H]1CCCC[C@@H]1N1CCCC1 | inactive: 4.27%
Cc1cc(SC(NC(=O)c2ccc(F)cc2)C(Cl)(Cl)Cl)ncn1 (centres undefined) | inactive: 23.3%
CCOP(=O)(Nc1ccccc1)OCC | inactive: 6.62%
O=P(Nc1nc2ccc(Cl)cc2s1)(c1ccccc1)c1ccccc1 | inactive: -15.7%
CCCC1OP(N)(=O)OCC1CC (centres undefined) | inactive: -12.9%
CC(=O)Nc1ccc([As](=O)(O)O)cc1 | inactive: 4.4%
O=C(O)c1ccccc1[As](=O)(O)O | inactive: 2.99%
Nc1cccc2ccc([As](=O)(O)O)cc12 | inactive: -5.21%
CCN(N=Nc1nonc1N)c1nonc1N | inactive: 6.73%
CN1CCCC(OC(=O)C(c2ccccc2)c2ccccc2)C1 (centres undefined) | inactive: 35%
Clc1ccc(Cl)c(NC2=NCC(CBr)S2)c1 (centres undefined) | inactive: -37.6%
COc1ccccc1OP(=O)(Nc1ccc(C)cn1)Oc1ccccc1OC | inactive: 27.5%

Structure (SMILES) | inhibition
Cc1ccc(N/C(=N/P(=O)(N2CCOCC2)N2CCOCC2)N2CCOCC2)cc1 | inactive: 13.2%
CN(C(=O)Cc1ccc(Cl)c(Cl)c1)[C@H]1CCCC[C@H]1N1CCCC1 | inactive: -11.2%
NC(=O)c1cc([N+](=O)[O-])cc([N+](=O)[O-])c1N | inactive: -37.1%
O=C(NC(Sc1ccncn1)C(Cl)(Cl)Cl)c1ccccc1 (centres undefined) | inactive: 7.45%
Oc1ccccc1CNc1ccccn1 | inactive: 7.96%
Nc1cc(N)c2nonc2c1[N+](=O)[O-] | inactive: 18.6%
CC(C)CC(=O)NC(Sc1ccc(Cl)cc1)C(Cl)(Cl)Cl (centres undefined) | inactive: 8.33%
O=[N+]([O-])c1cc([N+](=O)[O-])c(CCNc2ccccc2)c([N+](=O)[O-])c1 | inactive: -12.6%
Cc1ccc(NP(=O)(Oc2ccccc2)Oc2ccccc2)nc1 | inactive: 22%
O=[N+]([O-])c1cccc2n[nH]nc12 | inactive: -2.75%
CC(=O)N1C2C3N(C(C)=O)C1C1N(C(C)=O)C(C(N1C(C)=O)N3C(C)=O)N2C(C)=O | inactive: -9.12%
CC1CCN(C(=O)Oc2c(Cl)cc(Cl)c3cccnc23)CC1 | inactive: -4.37%
CN(C)C(=O)OCCc1n(C)cc[n+]1C | inactive: -16%
CC(C)=N/N=C(\N)N[N+](=O)[O-] | inactive: -18.5%
CCN(/C(=N/P(=O)(N1CCOCC1)N1CCOCC1)N1CCOCC1)c1ccc(OC)cc1 | inactive: -6.21%
C[N+]1=C2C=CC=CC=C2SC12C([N+](=O)[O-])=CC([N+](=O)[O-])=C[C-]2[N+](=O)[O-] (centres undefined) | inactive: -19.9%
Nc1ccc([As](=O)(O)c2ccc(N)cc2)cc1 | inactive: 2.39%
O=C(Nc1cc([As](=O)(O)O)ccc1O)c1ccccc1 | inactive: -1.67%
O=P1(N(CCCl)CCCl)OCCCS1 (centres undefined) | inactive: 6.79%
O=C(O)CNc1ccc([As](=O)(O)O)cc1 | inactive: -7.28%
COC(=O)C1(C)COP(=O)(Nc2ccccc2)OC1 (centres undefined) | inactive: 18.4%
O=[N+]([O-])c1cccc(NC2=NCC(CBr)S2)c1 (centres undefined) | inactive: -14%
O=[N+]([O-])c1ncn(CCn2ncnc2[N+](=O)[O-])n1 | inactive: -11.2%
CC(C)(C)C(=O)NC(Sc1ccncn1)C(Cl)(Cl)Cl (centres undefined) | inactive: -50.8%
